The values below come from patent EP0621339B1 (TAKARA SHUZO CO. LTD., dated 2001).

The target of the assay is HA molecule (haemagglutinin) of A/Suita/1/89 (H1N1) (influenza A virus, H1N1 subtype, strain A/Suita/1/89). The assay is described as follows: cell-based or functional assay.

In the case of monoclonal antibody C179, the HI (hemagglutination inhibition titer) (fold dilution of the ascites fluid) is < 32.
